Pooled drug test results. Numbers come from NIAID ChemDB, via PubChem.

Shared fields: growth or infection tests; agent: Candida albicans

ECn is the concentration giving n% inhibition of infection, replication or growth.

SMILES | measure | mutations | strain or isolate | tested at | method | result
CC1=CC[C@@H]2C[C@H]1C2(C)C | MIC50 | - | ATCC 90028 | - | broth dilution | 8000 µg/mL
O=C(O)c1ccccc1 | EC50 | - | ATCC 90028 | - | broth dilution / turbidity | 0.19 µM
COc1ccc2c(Cc3ccc(Br)cc3)c3[n+](cc2c1OC)CCc1cc2c(cc1-3)OCO2.[Br-] | MIC80 | Fluconazole-resistant | Clinical isolate | - | broth dilution | 64 µg/mL
O=Cc1cccc(O)c1O | EC50 | - | ATCC 90028 | - | broth dilution / turbidity | 0.04 µM
C[C@@H]1[C@H](O)[C@@H](C)/C=C/C=C/C=C/C=C/C=C/C=C/C=C/[C@H](O[C@@H]2O[C@H](C)[C@@H](O)[C@H](N)[C@@H]2O)C[C@@H]2O[C@](O)(C[C@@H](O)C[C@@H](O)[C@H](O)CC[C@@H](O)C[C@@H](O)CC(=O)O[C@H]1C)C[C@H](O)[C@H]2C(=O)O | zone | - | MTCC 183 | 20 µg/disc | agar diffusion / agar | 0 mm
C=C1C2CCC(C2)C1(C)C | MIC99.9 | - | ATCC 90028 | - | broth dilution | 4000 µg/mL
C[N+]1(C)CCc2cc3c(cc2C1)OCO3.[Br-] | MIC80 | Fluconazole-resistant | Clinical isolate | - | broth dilution | >64 µg/mL
C[C@@H]1[C@H](O)[C@@H](C)/C=C/C=C/CC/C=C/C=C/C=C/C=C/C(O[C@H]2O[C@H](C)[C@@H](O)[C@H](N)[C@@H]2O)CC2O[C@](O)(CC(O)C(O)CCC(O)CC(O)CC(O)CC(=O)O[C@H]1C)CC(O)C2C(=O)O | MIC100 | - | LM 42V | - | broth dilution | 64 µg/mL
O=Cc1cc(O)ccc1O | EC50 | - | ATCC 10231 | - | broth dilution / turbidity | 0.59 µM
C1CCNCC1 | MIC99.9 | - | ATCC 90028 | - | broth dilution | 1000 µg/mL
Cc1ccccc1CC(=O)NCCc1ccc2c(c1)OCO2 | MIC80 | Fluconazole-resistant | Clinical isolate | - | broth dilution | >64 µg/mL
CC12CCC(CC1)C(C)(C)O2 | MIC99.9 | - | ATCC 90028 | - | broth dilution | >8000 µg/mL
CC1=[N+](Cc2ccc(Br)cc2)CCc2cc3c(cc21)OCO3.[Br-] | MIC80 | Fluconazole-resistant | Clinical isolate | - | broth dilution | >64 µg/mL
C[C@@H](c1nc(-c2ccc(C#N)cc2)cs1)[C@](O)(Cn1cncn1)c1ccc(F)cc1F | MIC90 | - | 85 strains (fluconazole-resistant) | - | - | >8 µg/mL
C[C@@H]([C@H]1CC[C@H](C)C(=O)C1)[C@H]1CC[C@]2(C)C3=C(CC[C@@]12C)[C@]1(C)CC[C@H](O)C(C)(C)[C@H]1CC3 | zone | - | MTCC 183 | 3 µg/disc | agar diffusion / agar | 20 mm
Cc1ccc(C(=O)NCCc2ccc3c(c2)OCO3)cc1 | MIC80 | Fluconazole-resistant | Clinical isolate | - | broth dilution | >64 µg/mL
Nc1nc(=O)n([C@H]2CS[C@@H](CO)O2)cc1F | MIC90 | - | 4054 strains (fluconazole-susceptible) | - | - | 1 µg/mL
c1ccc2[nH]ccc2c1 | MIC99.9 | - | ATCC 90028 | - | broth dilution | 1000 µg/mL
O=C(NCCc1ccc2c(c1)OCO2)c1ccc(F)cc1 | MIC80 | Fluconazole-resistant | Clinical isolate | - | broth dilution | >64 µg/mL
C[C@@H](c1nc(-c2ccc(C#N)cc2)cs1)[C@](O)(Cn1cnnc1)c1ccc(F)cc1F | MIC | - | A28976 | - | - | >16 µg/mL
C=C1CC[C@H]2C[C@@H]1C2(C)C | MIC99.9 | - | ATCC 90028 | - | broth dilution | 1000 µg/mL
C=CCc1ccc(O)c(-c2ccc(O)c(CC=C)c2)c1 | MIC | - | YL 336 | - | broth dilution | 128 µg/mL
C=CC(C)(O)CCC=C(C)C | MIC99.9 | - | ATCC 90028 | - | broth dilution | >8000 µg/mL
O=C(NCCc1ccc2c(c1)OCO2)C(O)c1ccccc1 | MIC80 | Fluconazole-resistant | Clinical isolate | - | broth dilution | >64 µg/mL
COc1cc(C[C@H](C)[C@H](C)Cc2ccc(O)c(O)c2)ccc1O | MIC100 | - | CCC 129-2000 | - | broth dilution | 62.5 µg/mL
COc1cccc(C[N+]2=C(C)c3cc4c(cc3CC2)OCO4)c1OC.[Br-] | MIC80 | Fluconazole-resistant | Clinical isolate | - | broth dilution | >64 µg/mL
COc1ccccc1C=O | MIC90 | - | 1131 | - | agar diffusion / agar | 500–600 µg/mL

A second listing of 3 rows from above:

SMILES	measure	mutations	strain or isolate	tested at	method	result
COc1cc(C[C@H](C)[C@H](C)Cc2ccc(O)c(O)c2)ccc1O	MIC100	-	CCC 129-2000	-	broth dilution	62.5 µg/mL
O=C(O)c1ccccc1	EC50	-	ATCC 90028	-	broth dilution / turbidity	0.19 µM
C[C@@H]1[C@H](O)[C@@H](C)/C=C/C=C/CC/C=C/C=C/C=C/C=C/C(O[C@H]2O[C@H](C)[C@@H](O)[C@H](N)[C@@H]2O)CC2O[C@](O)(CC(O)C(O)CCC(O)CC(O)CC(O)CC(=O)O[C@H]1C)CC(O)C2C(=O)O	MIC100	-	LM 42V	-	broth dilution	64 µg/mL

MIC50, MIC90 and the like: level of inhibition, or share of isolates inhibited. a–b is a range or a potency band. Blank or dashed fields: not listed here. Zones are inhibition diameters on agar. Lines come from different laboratories, so protocols vary.